The results in this text go back to publication PMC7156659, “Structural insights into the mechanism and inhibition of transglutaminase-induced ubiquitination by the Legionella effector MavC” (2020).

Test [1] deals with MavC (L. pneumophila).
The target in test [2] is MavC (residues 7–384). Briefly: ITC. Particulars: parent: 5.52.

In the case of Lpg2149 (from UniProt Q5ZTL2 1-119), the stoichiometry N – broadly, a count of units in the complex or per binding partner – in test [1] came out at 1.
Take “Lpg2149 (from UniProt Q5ZTL2) F11A; F12A”: the equilibrium dissociation constant (Kd) (commonly the equilibrium constant for the complex coming apart) in test [2] was 0.0333 µM.
The same measure, in the same setting: under “Lpg2149 (from UniProt Q5ZTL2) F11K; F12D” stands 0.0694 µM; under “Lpg2149 (from UniProt Q5ZTL2) V20A; L23A; L24A”, 0.026 µM; under “Lpg2149 (from UniProt Q5ZTL2) Y15A; K18A; N19A”, 0.0206 µM.
